This note sets out measurements from PubChem BioAssay AID602233 (National Center for Advancing Translational Sciences (NCATS), 2012).

This is a selection; strong and weak results do not stand in their true shares. The source made the active and inactive calls. Calls follow the shape of the dose curve; as a rule, active = well fitted inhibition curve with a large enough effect; inconclusive = small, poorly fitted or top-dose-only effect; inactive = no such curve, though single readings can be large or run the other way.
% is scaled to controls: 0 for no effect and ±100 for the full control effect.

For the assay, the target named is Phosphoglycerate kinase, glycosomal (Trypanosoma brucei brucei) (UniProt P07378). The assay is described as follows: qHTS Assay to Find Inhibitors of Phosphoglycerate Kinase. Also: nearly all actives have a fitted effect of over 60% in size. The following applies: PGK/GAPDH coupled, Kinase-Glo luminescence, 60 min; activity change, negative = inhibition: at 57.5 µM (top of the series) unless noted. From the text: Several species of the Trypanosomatidae family of parasitic protozoans cause a spectrum of diseases throughout the tropical and subtropical world. Sleeping sickness, caused by two subspecies of Trypanosoma brucei, is endemic to areas of sub-Saharan Africa, while Chagas disease, a manifestation of Trypanosoma cruzi infection, is prevalent throughout Central and South America. In addition, many species of Leishmania are responsible for a range of cutaneous and visceral diseases, causing ulcers, destructive lesions and kalaazar, a lethal infection of the viscera. Collectively, these organisms infect 30 million people worldwide (~500 million live in endemic areas), and account for ~130,000 deaths annually. Given their debilitating and prevalent nature, trypanosomatid parasites impose a heavy medical, economic and social burden on entire populations, primarily in the developing world. The problem is further exacerbated by the fact that existing treatments have progressed little in the past 50 years, and current drugs show high toxicity and poor efficacy. […] Blood-stream stages of T. brucei are entirely dependent on glycolysis as a source of ATP, and the tricarboxylic acid cycle and oxidative phosphorylation are both repressed. Glycolysis in axenically cultured T. cruzi, representing the intracellular pathogenic stage, is also essential for these parasites. […] Previous studies have shown that the glycolytic enzyme, phosphoglycerate kinase (PGK), is a viable target for drugs to kill these parasites. […] NIH Molecular Libraries Probe Production Network [MLPCN] NIH Chemical Genomics Center [NCGC] MLPCN Grant: R03 MH093212 PI Name: Malcolm Walkinshaw, University of Edinburgh
3ul of substrate/PGK buffer (columns 1,2,5-48) are dispensed into Greiner white solid bottom 1536-well assay plates; columns 3-4 receive only TEA buffer as 0x PGK controls. Compounds are then transferred via Kalypsys pin tool equipped with 1536-pin array (10nl slotted pins, V&P Scientific, San Diego, CA). Following addition of compound, 1ul of GAPDH (100nM final concentration, all columns) is added to initiate the reaction (this upstream coupling enzyme is necessary for in-well production of PGK substrate, 1,3-bisphosphoglycerate (1,3-BPG), which is unstable and not commercially available). The plates are then incubated at room temperature for 60 minutes. Kinase-Glo Plus reagent is added (2ul) and plates incubated for 10 minutes, before being transferred to a ViewLux high-throughput CCD imager (PerkinElmer) wherein single end-point measurements of luminescence are acquired using a clear filter. All reagents are diluted in an assay buffer consisting of 100mM TEA (pH 7.6), 5mM MgCl2 and 0.01% Tween-20.
A general note: In qHTS, concentration-response curves come from the screen itself.
Regarding `O=P(Nc1nc2ccc(Cl)cc2s1)(c1ccccc1)c1ccccc1`, the activity change, negative = inhibition entry was “inactive”. As for `CN(C)P(=O)(N(C)C)n1c(Nc2ccccc2)nnc1-c1ccccc1`, the entry is “inactive”.

In the case of `CC(=O)Nc1ccc([As](=O)(O)O)cc1`, the activity change, negative = inhibition is inactive: -0.181%. Consider `CCCC1OP(N)(=O)OCC1CC` (stereo not drawn), for which the activity change, negative = inhibition is inactive: -6.89%. Then `Nc1cccc2ccc([As](=O)(O)O)cc12`, with inactive: -0.965%; and `CCN(N=Nc1nonc1N)c1nonc1N`, with inactive: -3.49%.

For `CN1CCCC(OC(=O)C(c2ccccc2)c2ccccc2)C1` (stereo not drawn), the activity change, negative = inhibition was inactive: -2.83%. As for `Clc1ccc(Cl)c(NC2=NCC(CBr)S2)c1` (stereo not drawn), the figure is inactive: 5.89%.

For the compound `COc1ccccc1OP(=O)(Nc1ccc(C)cn1)Oc1ccccc1OC`, the activity change, negative = inhibition is inactive: -2.24%.

For the compound `Cc1ccc(OP(=O)(Nc2nccs2)Oc2ccc(C)cc2)cc1`, the activity change, negative = inhibition is inactive: -6.1%. `Cc1ccc(N/C(=N/P(=O)(N2CCOCC2)N2CCOCC2)N2CCOCC2)cc1`: the activity change, negative = inhibition is inactive: -2.37%. Then `NC(=O)c1cc([N+](=O)[O-])cc([N+](=O)[O-])c1N`, with inactive: -12.1%; and `Oc1ccccc1CNc1ccccn1`, with inactive: 2.75% [at 11.5 µM]. As for `O=C(NC(Sc1ccncn1)C(Cl)(Cl)Cl)c1ccccc1` (stereo not drawn), the figure is inactive: -5.86%; as for `Nc1cc(N)c2nonc2c1[N+](=O)[O-]`, inactive: -17%; as for `CC(C)CC(=O)NC(Sc1ccc(Cl)cc1)C(Cl)(Cl)Cl` (stereo not drawn), inactive: -8.74%. Then `O=P1(N(CCCl)CCCl)OCCCN1CCCl` (stereo not drawn), with inactive: -5.12%; and `O=P1(N(CCCl)CCCl)Nc2ccccc2N1`, with inactive: 7.95%; and `COc1ccc2nc(NP(=O)(c3ccccc3)c3ccccc3)sc2c1`, with “inactive”. As for `COc1cc(I)ccc1[As](=O)(O)O`, the activity change, negative = inhibition was inactive: 10.5%. Then `O=C(OC1CN2CCC1CC2)C12CC3CC(CC(C3)C1)C2` (stereo not drawn), with inactive: -11.2%. Then `Cc1cc(=O)[nH]c(N[N+](=O)[O-])n1`, with inactive: 7.39%.

Regarding `O=[N+]([O-])c1cc(Oc2ccc([N+](=O)[O-])cc2C(F)(F)F)cc([N+](=O)[O-])c1`, the activity change, negative = inhibition is inactive: -8.2%. Then `COc1ccc(N/C(=N/P(=O)(N2CCOCC2)N2CCOCC2)N2CCOCC2)cc1`, with inactive: 0.731%; and `Cc1ccc2nc3c(c(C)c2c1)CC(C(Cl)Cl)S3` (stereo not drawn), with “inactive”. As for `O=[As](O)(c1ccc(O)cc1)c1ccccc1O`, the figure is inactive: -8.68%; as for `C[As](=O)(O)c1cccc(C(=O)O)c1`, “inactive”; as for `O=[N+]([O-])c1ccc(-c2cc([N+](=O)[O-])c(O)c([N+](=O)[O-])c2)cc1`, inactive: -12.4%. Then `COc1cc(C(=O)NCC2(N3CCOCC3)CCCCC2)ccc1OCC(C)C`, with inactive: 11.3%; and `CC(C)NC(=O)NP(=O)(Oc1ccccc1)Oc1ccccc1`, with inactive: 1.49%.

As to `CCN(CC)C(=S)SC(NC=O)C(Cl)(Cl)Cl` (stereo not drawn), the activity change, negative = inhibition was inactive: 3.59%. Turning to `O=C(OC1CN2CCC1CC2)c1cccc2[nH]cnc12` (stereo not drawn), the activity change, negative = inhibition entry was “inactive”. As for `O=[N+]([O-])c1cc([N+](=O)[O-])c(-c2ccn[nH]2)s1`, the activity change, negative = inhibition was inactive: -2.7%. Then `ClCCSc1nnc(-c2cccnc2)o1`, with inactive: 11.3%; and `COC(=O)C1(C)COP(=O)(N2CCCCCC2)OC1` (stereo not drawn), with inactive: -5.09%. As for `CC(C)c1ccc(OP(=O)(Nc2ccccn2)Oc2ccccc2F)cc1` (stereo not drawn), the figure is inactive: -2.83%; as for `COP(=O)(OC)N1CC1c1ccccc1` (stereo not drawn), “inactive”.

On to `CCCCOc1ccc(C(=O)NCC2(N3CCCCC3)CCCCC2)cc1OC`, for which the activity change, negative = inhibition entry was “inactive”. As for `Cc1cc(SC(NC(=O)c2ccccc2)C(Cl)(Cl)Cl)nc(C(C)C)n1` (stereo not drawn), the figure is inactive: 0.238%; as for `CCOC(=O)Nc1ccc([As](=O)(O)O)c(O)c1`, inactive: -8.49%. Then `O=C(O)C(O)c1ccc(N(CCCl)CCCl)cc1` (stereo not drawn), with inactive: 0.926%; and `CC1CCNP(=O)(N(CCCl)CCCl)O1` (stereo not drawn), with “inactive”. As for `O=P(Nc1ccccn1)(c1cccc2ccccc12)c1cccc2ccccc12`, the figure is inactive: -1.39%; as for `Cc1cc(SC(NC=O)C(Cl)(Cl)Cl)ncn1` (stereo not drawn), inactive: 0.993%; as for `O=[N+]([O-])c1ccc(Nc2ccc(Oc3ccc([N+](=O)[O-])cc3[N+](=O)[O-])cc2)c([N+](=O)[O-])c1`, inactive: -8.34%.

As for `CCOC(=O)Nc1cccc([As](=O)(O)O)c1`, the activity change, negative = inhibition was inactive: 2.46%. Then `O=C(O)C(=O)c1ccc(N(CCCl)CCCl)cc1`, with inactive: -9.17%; and `O=C(COc1ccccc1)OC1CN2CCC1CC2` (stereo not drawn), with “inactive”. Turning to `COP1(=S)c2c(C)nn(CCC#N)c2N=C(c2ccc(F)cc2)N1C` (stereo not drawn), the activity change, negative = inhibition is inactive: -8%.

For `CCC(C)N(CC(C)C)C(=S)SC(NC(C)=O)C(Cl)(Cl)Cl` (stereo not drawn), the activity change, negative = inhibition was inactive: -9.91%. With `O=C(OC1CN2CCC1CC2)c1cccc([N+](=O)[O-])c1` (stereo not drawn), the activity change, negative = inhibition result was “inactive”. For the compound `CSc1ccc(Nc2c([N+](=O)[O-])cc([N+](=O)[O-])cc2[N+](=O)[O-])cc1`, the activity change, negative = inhibition was inactive: -6.95%. As for `CCOC(=O)c1ccc(NC(=O)C(C)(CCl)SC)cc1` (stereo not drawn), the figure is inactive: -5.19%; as for `O=P1(N(CCCl)CCCl)NCCC(C(F)(F)F)O1` (stereo not drawn), “inactive”; as for `Clc1n[nH]nc1-c1nn[nH][15n]1`, “inactive”.

For `CC(C)(C)C(=O)NC(Sc1ncccn1)C(Cl)(Cl)Cl` (stereo not drawn), the activity change, negative = inhibition was inactive: 0.626%. Then `O=P1(Nc2ccccn2)COc2ccccc2OC1`, with inactive: -1.5%; and `CCC1=CC2Cc3nc4ccc(Cl)cc4c(N)c3C(C1)C2` (stereo not drawn), with inactive: 9.88%.

With `CCOP(=O)(NC(=NC(C)c1ccccc1)NC(C)c1ccccc1)OCC` (stereo not drawn), the activity change, negative = inhibition is inactive: 3.51%.

`CCOP(=O)(Nc1ccc(C)cn1)OCC`: the activity change, negative = inhibition is inactive: -1.27%.

In the case of `CN(CCCl)Cc1cc(Cl)c(NC2=NCCN2)c(Cl)c1`, the activity change, negative = inhibition was inactive: -0.978%. As for `CC(C)/C=N\N=C(\N)N[N+](=O)[O-]`, the figure is inactive: -0.265%; as for `CN(C(=O)Cc1ccc(Cl)c(Cl)c1)[C@@H]1CCCC[C@H]1N1CCCC1`, inactive: -1.9%; as for `CC1(CBr)Cn2c(nc3ccccc3c2=O)S1` (stereo not drawn), inactive: 4.48%. Then `COc1ccccc1CNC(=O)COC(=O)C(O)(c1ccccc1)c1ccccc1`, with inactive: -4.81%; and `CN(C)C1(CNC(=O)c2ccc(S(C)(=O)=O)cc2)CCCCC1`, with inactive: 3.83%. As for `O=C(/C=C/c1ccccc1)OC1CN2CCC1CC2` (stereo not drawn), the figure is inactive: -5.36%; as for `CCCC1OP(=O)(Nc2ccccc2)OCC1CC` (stereo not drawn), inactive: 0.469%.
